The text below walks through data of patent publication US8614182B2 (Jiangsu Hansoh Pharmaceuticals Co., Ltd., priority 2009, dated 2013).

Strings that start with PEPTIDE1 are HELM notation: dots part the residues, brackets hold end groups and non-standard residues. Non-standard residues stand in square brackets, D forms with d. No end group written: not given here. Aib = CC(C)(N)C(=O)O

A short description of this data set: peptide synthesis. The settings on record: for step yield: purification step; for final purity (method not given): whole synthesis.

For “H[Aib]EGTFTSDVSSYLEEEAAKEFIAWLVRGGPSSGAPPPS”, the step yield came out at 22.5% and the “final purity (method not given)” value is on record as 98.5%.

Take “H[dA]EGTFTSDVSSYLEEEAAKEFIAWLVRGGPSSGAPPPS”: the step yield was 25% and the “final purity (method not given)” value came out at 98.5%.

Consider “PEPTIDE1{H.A.E.G.T.F.T.S.D.V.S.S.Y.L.E.E.Q.A.A.E.F.I.V.W.L.V.K.G.R.G.K.K.G.G.P.P.P.S}|PEPTIDE2{[Pal16].K}$PEPTIDE1,PEPTIDE2,38:R2-2:R3$$$V2.0”, for which the step yield is listed as 20.5% and the “final purity (method not given)” value was 98%.

With “PEPTIDE1{H.A.E.G.T.F.T.S.D.V.S.S.Y.L.E.G.Q.A.A.E.F.I.V.W.L.V.K.G.R.G.K.K.G.G.P.P.P.S}|PEPTIDE2{[Pal16].K}$PEPTIDE1,PEPTIDE2,38:R2-2:R3$$$V2.0”, the step yield stood at 25% and the “final purity (method not given)” value worked out at 98.5%.
